# Experimental data reported in patent US20150086555A1 (THERACLONE SCIENCES, published 2015).
# B1: TCN-523 (5248_A17) (antibody, V domains shown)
# VH: QVQLVQSGAEVKKPGSSVKVSCKASGGSFSNYAFSWVRQAPGQGLEWMGGTIPLLGTTNYAQKFQGRVTISADQFTSTAYMELGSLRSEDTAVYYCTRRKMTTAFDSWGQGTLVTVSS
# VL: QPVLTQPPSASASLGASVTLTCTLSSAYSNYKVDWYQQRPGKGPRFVMRVGTGGIVGSKGDGIPDRFSVLGSGLNRYLTIKNIQEEDESDYHCGADHGSGSNFVSPYVFGGGTKLTVL
# B2: TCN-526 (5084_C17) (antibody, V domains shown)
# VH: EVLMVESGGGLVQPGGSVRLSCVASGFSFSSHWMTWVRQAPGKGLEWVANIEDDGGDKYYVDSVKGRFIISRDNAKNSVYLQMNSLRAEDTAVYFCARGSGSSDRSDYDPHYYYYLDVWGKGATVTVSS
# VL: DIQLTQSPSSLSASVGDRVTITCRASQSISRYLNWYQQKPGKAPKLLLFAASTLLDGVPSRFSGSGSGTDFTLTISSLQPEDFATYYCQRNHSPSWTFGQGTRVEIK
# B3: TCN-527 (5086_C06) (antibody, V domains shown)
# VH: QVQLQESGPGLVKPSETLSLNCAVSGGSISNYYWSWIRQPPGKGLEWIGYISYNGRPKYNPSLTSRVTISVDTSKDQFSLELRSVTAADTALYYCARETRFGELLSPYDAFEIWGQGTMVTVSS
# VL: DIQMTQSPSSLSASVGDRVTMTCRASQNIRSYLNWYQQRPGTAPKLLIYAASTLHSGVPSRFSGGGSGTDFTLTINNLQPEDFASYYCQQSYDNPQTFGQGTKVEIK
# B4: TCN-528 (5087_P17) (antibody, V domains shown)
# VH: QVQLVQSGSEVKKPGASVKVSCKASGYTFTNYDINWIRQAPGQGLEWMGWINPNSGTTGSAQRFQGRVTITVDTSITTVYMELSSLRSDDTAIYYCARGRELLRLQHFLTDSQSERRDCFDPWGQGTLVTVSS
# VL: DIQMTQSPSSLSASVGDRVTITCRANQDIGIYLNWYQQNPGKVPKLLLHGASSLQGGVPSRFSASGSGTDFTLTIHSLQPEDLATYYCQQSRRLPYTFGQGTRVELK
# B5: TCN-529 (5297_H01) (antibody, V domains shown)
# VH: QITLRESGPTLVKPTQTLTLTCTFSGFSLSTNGVNVGWIRQPPGKALEWLALIYWDDDKRYSPSLKRRLTITKDTSKNQVVLTLTNMDPVDTATYYCAHRPDFYGDFEYWGPGTLVTVSS
# VL: QSALTQPASVSGSPGQSITISCTGSSSDIGGYNYVSWYQQHPGKAPKLMIYDVNNRPSGVSNRFSGSKSGNTASLTISGLQTDDEADYYCGSYTGSPHYVFGTGTKVTVL
# B6: TCN-531 (5091_H13) (antibody, V domains shown)
# VH: EVQLVESGGDLVQPGRSLKLSCTGSGFTFGDYGVTWVRQAPGKGLEWVGFIRTRPWGGTADTAASVKGRFTISRDDSKSLAYLQMNSLKTEDTAVYYCCRDAPPNVEVASMTNWYFDLWGRGTLVTVSS
# VL: DIQLTQSPSSLSASVGDRVTITCRASQGILNCLAWYQQKPGKVPNLLMYAASTLQSGVPSRFSGSGFGTDFTLTISSLQPEDVATYYCQTYGGVSTFGGGTKVEIR
# B7: TCN-532 (5262_H18) (antibody, V domains shown)
# VH: QVQLQESGPGLVKPSETLSLTCTVSGGSVSSETYYWSWIRQPPGKGLEWIGYIYYIGNTDYRPSLKSRVTISLDTSKNQFSLKLSSVTAADTAVYYCARGAYYDSSGYPAFYIWGQGTMVTVSS
# VL: QSVLTQPPSVSGAPGQRVTISCTGSSSNIGSDYDVHWYKQLPGTAPKLLIFGNSNRPSGVPDRFSGSKSGTSASLAITGLQAEDEADYYCQSYDSSLSGFHVFGSGTKVTVL
# B8: TCN-535 (5246_P19) (antibody, V domains shown)
# VH: QVQLVQSGSEVKKPGTSVKVSCTASGSVFTNYGISWVRQAPGQGLEWMGGIIPLFGAAKYAQKFQGRVTITADESTKTVYMELSRLTSKDTAIYFCAKAPRVYEYYFDQWGQGTPVTVSS
# VL: EIVLTQSPGTLSLSPGERATLSCRASQSVSSSQLAWYQQKPGQAPRLIIYGASTRATGIPDRFSGSGSGTDFTLTIGRLEPEDFAVFFCQQYSTSPPTFGQGTKVDFK
# B9: TCN-537 (3194_D21) (antibody, V domains shown)
# VH: QVQLQQWGSGLLKPSETLSLTCAVYGGSFRDDYWTWIRQPPGKGLEWIGEINHSGRTNYNPSLKSRVTISVDTSLKQFSLKVISVTAADTAVYYCARGTSHVSRYFDWLPPTNWFDPWGQGTQVTVSS
# VL: DIVLTQSPGTLSLSPGERATLSCRASQSVSSSYLAWYQQKPGQAPRLVMYGAATRATGIPDRFSGSGSGPDFTLTISRLEPEDFAMYYCQQYGNSPITFGQGTRLEIK
# B10: TCN-538 (3206_O17) (antibody, V domains shown)
# VH: QITLKESGPTLVKPTQTLTLTCVFSGFSLSITGVRVGWIRQPPGKALEWLALISWDDEKHYSPSLQSRLTITKDTSKNQVVLTMTNLDPVDTATYYCARSTDRGHVLRYFGWMLPGDAFDVWGQGTMVTVSS
# VL: DIVMTQSPDFLPVSLGERATINCKSSQRVLYSSNNKNYLAWYQLKPGQPPKLIIYWASTRESGVPDRFSGSGSGTEFTLTISSLQAEDVAVYYCQQYYSRPYTFGQGTKLEIK
# B11: TCN-539 (5056_A08) (antibody, V domains shown)
# VH: QVQLVESGGGVVQPGRSLRLSCAASEITFITYAMHWVRQAPGKGLEWVALISDDGSNKFYADSVKGRFTISRDNSKNTLYLQMNSLRAEDTAAYYCAREGVYFDSGTYRGYFDYWGQETLVTVSS
# VL: EIVLTQSPATLSLSPGERATLSCRASQSVSSYLAWYQQKPGQAPRLLIYDASNRATGIPARFSGSGSGTDFTLTISSLEPEDFAVYYCQQRSHWPPITFGQGTRLEIK
# B12: TCN-540 (5060_F05) (antibody, V domains shown)
# VH: QVQLVQSGGGVVQPGRSLRLSCAASGFTFSSYAMHWVRQAPGKGLEWVAIISYDGNDQYYTDSVKGRFTISRDSSKVYLQMHRLRPEDTAVYYCAKEFETSGYFHGSFDYWGQGILVTVSS
# VL: QSALTQPASVSGSPGQSITISCTGTSSDVGGYNYVSWYQQHPGKAPKLLIYEVTNWPSGVSNRFSGSKSGNTASLTISGLQAEDEADYYCSSYAGSSTWVFGGGTRVTVL
# B13: TCN-543 (5081_G23) (antibody, V domains shown)
# VH: QVHLVQSGAEVRKPGDSVKVSCKTSGYTFSTYPVAWVRQVPGQGLEWMGWISTYNGNTNFAQNFQGRVTLTTDTTTNTAYMEVRSLKFDDTAVYYCARVEGSYRDFWNNQNRFDPWGQGTLVTVSS
# VL: SYVLTQPPSVSVAPGQTARISCGGSNIGGKSVHWYQQKPGQAPVLVVYDDSGRPSGIPERFSGSNSGDTATLTISRVEAGDEADYFCQVWDNFGGVFGTGTKVTVL
# B14: TCN-552 (5249_I23) (antibody, V domains shown)
# VH: QVQVVQSGAEVKKPGSSVRVSCQASGGTFMNYAIIWVRRAPGQGLEWMGGIIPVFPTPNYAQMFQGRVTISTDESRSTSFLELTNLRYEDTAVYYCARRIYHGGNSGFDFWGQGTLVTVSS
# VL: EIVLTQSPATLSLSPGERATLSCRASQSVGNYLAWYQQKPGQAPRLLIYDSSNRAPGIPARFSGSGSGTDFTLTISSLAPEDFAVYYCQQRSKWPPMYSFGHGTKLEIK
# B15: TCN-553 (5261_C18) (antibody, V domains shown)
# VH: QVQVVQSGTEVKKPGSSVKVSCQTSGGRFMSYAITWVRQAPGQGLEWMGGIVPVFGTANYAQKFQGRVTITTDDSTRTAYMELSSLRSEDTAVYYCGFRYGSGYGFDSWGQGTLVTVSS
# VL: EIVLTQSPGTLSLSPGERATLSCRASQSVSSSYLAWYQKKPGQAPRLLIYGASTRATGIPDRFTGSGSGTDFTLSISRLEPEDFAVYYCQHFGTSVFTFGGGTKVEIK
# B16: TCN-555 (5246_L16) (antibody, V domains shown)
# VH: QVQLVQSGAEVKRPGSSVKVSCTASGGIFRKNAISWVRQAPGQGLEWMGGIIAVFNTANYAQKFQNRVKITADESGNTAYMELSSLTSDDTAVYYCASHPKYFYGSGSYPDFWGQGTLVTVSS
# VL: QSALTQPRSVSGSPGQSITISCTGGSSDIGASNSVSWYQQHPGKAPKLVIFDVTERPSGVPHRFSGSKSGNTASLTVSGLQPDDEADYFCCAYGGKYLVVFGGGTKVTVL
# B17: TCN-557 (5081_A04) (antibody, V domains shown)
# VH: QVQLVQSGAEVKKPGASVKVSCKASGHTFTGYYIHWVRQAPGQGLEWMGWINPDSGATSSAQNFQGRVTMTGDTSSSTAYMELSRLSFDDTAVYYCARVLFTSPFDFWGEGTLVTVSS
# VL: QAVVTQEPSLAVSPGGTVTLTCGSSTGAVTRGHYPYWFQQKPGQAPRALIYDSAGNRHSWTPARFSGSLLGGKAALTLSGAQPEDEAEYYCLLSYSGVWVFGGGTKLTVL
# B18: TCN-558 (5248_H10b) (antibody, V domains shown)
# VH: B8 VH
# VL: EIVMTQFPATLSVSPGERVTLSCRASQSVSNNLAWYQQKPGQPPRLLIYDASTRATGVPAKFSGTGSGTEFTLSISSLQSEDFAVYYCQQYHNWPPSYSFGLGTKLEIK
# B19: TCN-560 (5084_P10) (antibody, V domains shown)
# VH: EVQLVESGGGLVQPGGSLRLSCAASGFIFRNYWMSWVRQAPGKGLEWVANIKQDGREKYYVDSLRGRVNISRDNAENSLYLHMNSLRVEDTAVYFCARARMVVVTGDGFDVWGHGTMVTVSS
# VL: DIQMTQSPSSLSASVGDRVTITCRASQNIKRYFNWYQQKPGKAPKLLIYAASNLENGVPSRFSGSGSGTDFTLTISSLQPEDFATYYCQQSFSKSWTFGQGTNVDIK
# Key:
# [1] = biological target: hemagglutinin on whole influenza A virions, A/Solomon Islands/3/06 H1N1 (Influenza A virus A/Solomon …)
# [2] = biological target: hemagglutinin on whole influenza A virions, A/Wisconsin/67/05 H3N2 (Influenza A virus …)
# [3] = biological target: T1, Hemagglutinin (HA) of influenza A virus A/Wisconsin/67/05 H3N2, on whole virions (Influenza A virus A/Wisconsin/67/2005 …); assay: ELISA on coated inactivated whole virions; transfection supernatant, set 5
# T1 construct: whole, on cells
# [4] = biological target: Hemagglutinin (HA) of influenza A virus A/Japan/305/57 H2N2, on whole virions (Influenza A virus A/Japan/305/1957 …)
Binder,ELISA: Virus Binding (OD450) [1] [OD450],ELISA: Virus Binding (OD450) [2] [OD450],ELISA virus binding (OD450) [3] [OD450],ELISA virus binding (OD450) [4] [OD450]
B1,3.64,0.13,–,–
B2,0.07,2.84,–,–
B3,3.63,0.22,–,–
B4,3.63,0.46,–,–
B5,0.07,3.6,–,–
B6,0.08,3.61,–,–
B7,0.07,2.36,–,–
B8,3.63,0.12,–,–
B9,3.63,0.09,–,–
B10,3.64,0.11,–,–
B11,0.07,0.13,–,–
B12,0.07,3.64,–,–
B13,3.64,3.63,–,–
B14,–,–,0.27,2.68
B15,–,–,0.17,3.28
B16,–,–,0.13,2.1
B17,–,–,3.47,3.59
B18,–,–,0.2,3.31
B19,–,–,0.3,3.55
